This assay addresses T1, human PP1α (residues 7–300) (human, UniProt P62136 7-300).
T1 construct: also called protein phosphatase-1; recombinant PP1; source: E. coli BL21 (DE3), co-expressed with GroEL/GroES chaperones, purified (Ni-NTA IMAC)
The experiment in a line: SPR; PP1 immobilised on a CM5 chip by amine coupling (about 3160 RU); Biacore T200, 25°C; running buffer 0.01 M HEPES pH 7.4, 0.15 M NaCl, 0.005% Surfactant P20, 1% DMSO, 2 mM MnCl2; 1:1 binding model. The conditions noted are these: both partners purified.

By UniProt entry, the sequences of proteins in these tests, tags left out. Residues count along the entry.
UniProt P62136, 7-300: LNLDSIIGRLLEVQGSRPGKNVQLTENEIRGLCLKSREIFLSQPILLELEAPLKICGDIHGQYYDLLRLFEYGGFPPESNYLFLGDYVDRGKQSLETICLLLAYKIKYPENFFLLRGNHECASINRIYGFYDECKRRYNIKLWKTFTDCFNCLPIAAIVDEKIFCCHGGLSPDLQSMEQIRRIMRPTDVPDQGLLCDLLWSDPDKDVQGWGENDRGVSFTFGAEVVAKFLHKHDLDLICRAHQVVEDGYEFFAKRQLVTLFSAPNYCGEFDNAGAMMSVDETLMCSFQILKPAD

B1: pRb-Tat hybrid peptide (retinoblastoma protein-derived phosphopeptide linked to an RVxF-containing sequence derived from HIV-1 Tat) (peptide)
peptide: HIPRSPYKFPSSPLRKKCCFHCQVCFITK
modifications: phosphoserine at position 5 of the peptide, HIPR(pS)PYK (a single serine phosphorylated)
notes: retinoblastoma protein (pRb) part of the hybrid peptide; HIV-1 Tat part of the hybrid peptide with the RVxF-like motif QVCF; also called pRb-Tat peptide
Molecule B1 yielded a dissociation constant Kd of 160 nM. This counts as sub-micromolar.

For the origin of these results see PMC5652740, “Inhibition of HIV-1 infection in humanized mice and metabolic stability of protein phosphatase-1-targeting small molecule 1E7-03” (Oncotarget, 2017).
